PubChem BioAssay AID624099 – ICCB-Longwood | 2012

Aim: 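Knock-downs relieving repression by E2 of an HPV18 LCR luciferase reporter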 (primary screen)
Cells: human C33A cervical carcinoma cells (HPV-negative) stably expressing BPV1 E2 and an HPV18 LCR luciferase reporter
Reagent: siRNA pool against human genes, 40 nM
Time to read-out: 72 h
Read-out: 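Per-well luciferase luminescence, z-scored on each plate against the plate mean and SD with control wells left out, then averaged across three replicate plates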
Direction: mean z-score and z-score: higher = stronger reporter signal, weaker E2 silencing
Hit rule: 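Hit if mean z-score reaches 2 and two or more of three replicate z-scores also reach 2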
The whole screen tested about 21,000 reagents; shown is an unselected part. Over the whole deposit, 497 (2.4%) were called active. 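Higher z means weaker E2 silencing; only reporter increases were scored, and knock-downs that hurt cell survival may mask genuine repressor factors.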 Unmarked entries are inactive.

| target gene | mean z-score | z-score, replicate A | z-score, replicate B | z-score, replicate C |
| --- | --- | --- | --- | --- |
| PHLDB3 (GeneID 653583) | -1.56 | -1.67 | -1.37 | -1.64 |
| LOC400723 (retired record) (GeneID 400723) | 0.06 | 0.13 | 0.12 | -0.08 |
| CAPN6 (GeneID 827) | -0.27 | 0 | -0.41 | -0.4 |
| SLC30A1 (GeneID 7779) | -0.01 | -0.1 | 0.14 | -0.07 |
| GJA8 (GeneID 2703) | 0.35 | 0.54 | 0.15 | 0.36 |
| CAPN5 (GeneID 726) | 1.74 | 2.03 | 1.5 | 1.68 |
| MIXL1 (GeneID 83881) | 1.48 | 1.43 | 1.43 | 1.57 |
| DRAIC (GeneID 145837) | 0.9 | 0.39 | 0.07 | 2.25 |
| PGP (GeneID 283871) | -0.03 | -0.1 | 0.32 | -0.32 |
| CFAP410 (GeneID 755) | 0.21 | 0.49 | 0.14 | -0.01 |
| KRTAP10-12 (GeneID 386685) | 0.09 | -0.18 | 0.42 | 0.02 |
| L2HGDH (GeneID 79944) | 0.99 | 0.85 | 1.25 | 0.86 |
| ST6GALNAC1 (GeneID 55808) | -0.59 | -0.55 | -0.67 | -0.56 |
| RITA1 (GeneID 84934) | -0.2 | -0.19 | -0.14 | -0.27 |
| ZBTB21 (GeneID 49854) | 1.92 | 2.25 | 1.9 | 1.59 |
| LOC389660 (retired record) (GeneID 389660) | -0.21 | -0.72 | 0.17 | -0.07 |
| ABL1 (GeneID 25) | 0.62 | 0.41 | 0.7 | 0.74 |
| LOC388489 (retired record) (GeneID 388489) | 0.52 | 0.57 | 0.51 | 0.48 |
| GPATCH8 (GeneID 23131) | 1.61 | 1.83 | 1.48 | 1.53 |
| TICAM1 (GeneID 148022) | -0.72 | -0.66 | -0.54 | -0.96 |
| SS18L1 (GeneID 26039) | 0.22 | 0.17 | 0.12 | 0.36 |
| ZIC3 (GeneID 7547) | -1.54 | -1.36 | -1.64 | -1.6 |
| POLR2J2 (GeneID 246721) | -1.91 | -1.89 | -2.05 | -1.77 |
| SLC60A2 (GeneID 91749) | 2.08 | 2.34 | 1.94 | 1.96 |
| TNXB (GeneID 7148) | -0.48 | -0.58 | -0.31 | -0.56 |
| RPLP1P3 (GeneID 127099) | -0.13 | -0.21 | 0.2 | -0.37 |
| METTL2B (GeneID 55798) | -1.46 | -1.6 | -1.38 | -1.39 |
| PUS10 (GeneID 150962) | 0.47 | 0.52 | 0.6 | 0.3 |
| MEIS1 (GeneID 4211) | -2.11 | -1.88 | -2.58 | -1.87 |
| RBPJ (GeneID 3516) | 0.19 | 0.04 | 0.23 | 0.29 |
| GRK4 (GeneID 2868) | 1.35 | 1.7 | 1.31 | 1.03 |
| LOC391745 (retired record) (GeneID 391745) | 0.25 | 0.13 | 0.27 | 0.34 |
| GPR37L1 (GeneID 9283) | -0.19 | -0.29 | -0.21 | -0.06 |
| RAB32 (GeneID 10981) | -0.29 | -0.43 | -0.42 | -0.01 |
| CEP44 (GeneID 80817) | -0.52 | -0.75 | -0.61 | -0.18 |
| LOC388477 (retired record) (GeneID 388477) | -1.03 | -1.07 | -0.91 | -1.11 |
| MRPL43 (GeneID 84545) | -1.89 | -2.02 | -1.81 | -1.84 |
| LINC02072 (GeneID 440446) | 0.44 | 0.86 | 0.6 | -0.15 |
| ANO6 (GeneID 196527) | -0.09 | 0.25 | -0.19 | -0.32 |
| KIF19 (GeneID 124602) | -2.5 | -2.41 | -2.6 | -2.51 |
| TRIM41 (GeneID 90933) | -0.29 | -0.08 | -0.37 | -0.43 |
| INE1 (GeneID 8552) | -0.12 | 0.03 | -0.21 | -0.18 |
| B3GALT4 (GeneID 8705) | -1.16 | -1.03 | -1.08 | -1.36 |
| HMG20B (GeneID 10362) | -1.11 | -1.17 | -1.18 | -0.99 |
| OR7D2 (GeneID 162998) | 0.08 | 0.25 | 0.02 | -0.02 |
| NMT1 (GeneID 4836) | 0.72 | 0.95 | 0.43 | 0.79 |
| CCNA2 (GeneID 890) | -0.73 | -0.82 | -0.7 | -0.68 |
| SLC6A18 (GeneID 348932) | -0.66 | -0.56 | -0.81 | -0.62 |
| RPS29 (GeneID 6235) | -2.74 | -2.68 | -2.7 | -2.84 |
| TMEM130 (GeneID 222865) | -0.44 | -0.85 | -0.04 | -0.43 |
| ABI3 (GeneID 51225) | 1.94 | 1.78 | 2.04 | 1.99 |
| LOC402414 (retired record) (GeneID 402414) | -0.58 | -0.91 | -0.43 | -0.4 |
| KIAA1671 (GeneID 85379) | -0.39 | -0.56 | -0.48 | -0.12 |
| TMEM242 (GeneID 729515) | 0.54 | 0.29 | 0.33 | 0.98 |
| PCBD2 (GeneID 84105) | 0.35 | 0.38 | 0.39 | 0.29 |
| ATRNL1 (GeneID 26033) | -0.41 | -0.52 | -0.48 | -0.22 |
| NUDCD2 (GeneID 134492) | 0.37 | 0 | 0.64 | 0.49 |
| TRIO (GeneID 7204) | -0.5 | -0.45 | -0.46 | -0.59 |
| LINC01366 (GeneID 257358) | 0.12 | -0.05 | 0.3 | 0.1 |
| CTAG1A (GeneID 246100) | 0.61 | 0.5 | 0.81 | 0.52 |
| SNRPD3 (GeneID 6634) | -0.79 | -0.79 | -0.71 | -0.86 |
| PTPN5 (GeneID 84867) | 0.28 | 0.32 | 0.15 | 0.38 |
| GPSM1 (GeneID 26086) | -1.45 | -1.79 | -1.03 | -1.52 |
| GALNT8 (GeneID 26290) | 0.12 | 0.41 | -0.37 | 0.32 |
| UPK2 (GeneID 7379) | -1.09 | -1.12 | -1 | -1.14 |
| STYXL1 (GeneID 51657) | -0.95 | -0.95 | -1.04 | -0.86 |
| KLHL10 (GeneID 317719) | -0.55 | -0.15 | -0.74 | -0.76 |
| TCF7L2 (GeneID 6934) | 0.85 | 0.76 | 1.02 | 0.76 |
| TNFSF15 (GeneID 9966) | 1.77 | 1.86 | 1.82 | 1.62 |
| MYO5A (GeneID 4644) | 0.92 | 0.94 | 0.8 | 1.03 |
| BAG5 (GeneID 9529) | -0.16 | -0.53 | -0.19 | 0.25 |
| ITGAE (GeneID 3682) | -0.79 | -0.76 | -0.77 | -0.85 |
| BUB1 (GeneID 699) | -0.44 | -0.12 | -0.83 | -0.37 |
